Results of unrelated studies side by side (data: NIAID ChemDB).

Common to all: growth or infection tests; agent: HIV-2; measure: EC50

An empty or dashed field is not shown. Lines come from different laboratories, so protocols vary. ECn is the concentration giving n% inhibition of infection, replication or growth.

structure	cell line	setting	strain	method	result
C#C[C@]1(CO)O[C@@H](n2ccc(N)nc2=O)[C@@H](O)[C@@H]1O	HeLa	-	EHO	β-galactosidase	0.003 µM
O=c1[nH]c(=O)n(/C=C/P(=O)(O)O)cc1Br	CEM + CEM-SS	-	ROD	-	>200 µM
CCOC(=O)c1csc(N2N=C(c3ccccc3)CC2c2ccc(Cl)cc2)n1	MT-4	-	ROD	MTT / absorbance	>11.51 µM
Nc1nc(NC2CC2)c2ncn([C@H]3C=C[C@@H](CO)C3)c2n1	MT-4	-	ZY	cytopathic effect / propidium iodide	4.1 µM
CCCCNc1nc(N)nc2c1[nH]c[n+]2C[C@@H](C)OCP(=O)(O)O	CEM	-	ROD	cytopathic effect / MTT	10 µg/mL
Cc1ccnc2c1NC(=O)c1cccnc1N2C1CC1	CEM + CEM-SS	-	ROD	XTT	>38 µM
Cc1ccnc2c1NC(=O)c1cccnc1N2C1CC1	CEM + CEM-SS	-	-	cytopathic effect / XTT	>38 µM
Cc1cn([C@H]2C[C@H](N=[N+]=[N-])[C@@H](CO)O2)c(=O)[nH]c1=O	PBMC	-	-	p24 / RT activity	0.012 µM
COC(=O)[C@@H](C)NP(=O)(OC[C@@H]1C=C[C@H](n2cc(C)c(=O)[nH]c2=O)O1)Oc1ccccc1	CEM	-	-	-	2 µM
CC(C)[C@H](NC(=O)OCc1ccccc1)C(=O)N[C@@H](Cc1ccccc1)[C@@H](O)[C@@H](NCc1ccc(Cl)cc1)C(=O)N[C@H](C(=O)NCc1nc2ccccc2[nH]1)C(C)C	MT-4	-	ROD	p24	0.415 µM
Cc1ccc(CN2C(=O)CSC2c2c(F)cccc2F)o1	MT-4	-	ROD	cytopathic effect	35.2 µM
COc1ccc(CN[C@@H](C(=O)N[C@H](C(=O)NCc2nc3ccccc3[nH]2)C(C)C)[C@H](O)[C@H](Cc2ccccc2)NC(=O)[C@@H](NC(=O)[C@@](C)(O)c2ccccc2)C(C)(C)C)cc1	MT-4	-	ROD	p24	0.77 µM
Cc1ccc(-n2c(-n3[nH]c(=O)c4ccccc4c3=O)nc3ccccc3c2=O)cc1	MT-4	-	ROD	visual reading	100 µM
CC(C)(C)[Si](C)(C)OCC1OC(n2nncc2C(=O)NC2CCC2)C(O[Si](C)(C)C(C)(C)C)C12OS(=O)(=O)C=C2N	MT-4	-	ROD	cytopathic effect	>250 µM
CCOC(=O)CC1OP(=O)(OC[C@@H]2C=C[C@H](n3cc(C)c(=O)[nH]c3=O)O2)Oc2ccccc21	CEM + CEM/O	-	ROD	cytopathic effect / syncytia	0.33 µM
CC1=C(C(=O)Nc2ccc(Cl)c(C(=O)OC(C)C)c2)SCCO1	CEM + CEM-SS	-	-	cytopathic effect / XTT	>28.1 µM
C[C@H](Cn1cnc2c(N)ncnc21)OCP(=O)(O)O	MT-4	-	ROD	-	4.9 µM
C=C(C)OC(=O)N1c2cc(Cl)ccc2NC(=S)C1(C)C	PBL	-	ROD	p24	>10 µM
Cc1cn([C@H]2C=C[C@@H](CO)O2)c(=O)[nH]c1=O	CEM + CEM/O	-	LAV-2	syncytia	0.24 µM
Nc1ncnc2c1ncn2CCOCP(=O)(O)O	MT-4	-	ROD	-	8 µM
O=C1CSC(c2cccnc2)N1Cc1ccco1	MT-4	-	ROD	cytopathic effect	84 µM
O=C1N(Cc2ccc(CO)cc2)[C@H](Cc2ccccc2)[C@H](O)[C@@H](O)[C@@H](Cc2ccccc2)N1Cc1ccc(CO)cc1	MT-2	-	ROD	virus yield	<0.05 µM
CCOP(=O)(/C=C\n1cc(C)c(=O)[nH]c1=O)OCC	CEM + CEM-SS	-	ROD	-	>200 µM
Cc1ccnc2c1NC(=O)c1cccnc1N2C1CC1	MT-4	-	ROD	trypan blue	>50 µM
Cc1cn([C@H]2C=C[C@@H](COP3(=O)OCc4cccc(CCC(=O)O)c4O3)O2)c(=O)[nH]c1=O	CEM + CEM/O	-	LAV-2	syncytia	1.4 µM
Cc1ccc(/C=N/NC(=O)c2csc(N3N=C(c4ccccc4)CC3c3ccc(Cl)cc3)n2)cc1	MT-4	-	ROD	MTT / absorbance	>125 µM
CCNC(=O)c1cnnn1C1OC(CO[Si](C)(C)C(C)(C)C)C2(OS(=O)(=O)C=C2N)C1O[Si](C)(C)C(C)(C)C	CEM	-	ROD	cytopathic effect	>250 µM
Nc1ccn([C@H]2CC[C@@H](CO)O2)c(=O)n1	CEM	-	LAV-2	virus yield	<0.001 µM
Cc1cn([C@H]2C[C@H](N=[N+]=[N-])[C@@H](CO)O2)c(=O)[nH]c1=O	CEM + CEM-SS	-	MS	cytopathic effect / XTT	0.007 µM
Cc1nc(N2C(=O)CSC2c2c(F)cccc2F)ccc1Br	MT-4	-	ROD	cytopathic effect	11.7 µM
Nc1ccn(/C=C/P(=O)(O)O)c(=O)n1	CEM + CEM-SS	-	ROD	-	>200 µM
C[C@]1(CO)O[C@@H](n2ccc(N)nc2=O)C[C@@H]1O	HeLa	-	ROD	β-galactosidase	0.002 µM
COc1ccc(CN[C@@H](C(=O)N[C@H](C(=O)NCc2nc3ccccc3[nH]2)C(C)C)[C@H](O)[C@H](Cc2ccccc2)NC(=O)[C@@H](NC(=O)CCc2ccc(O)cc2)C(C)(C)C)cc1	MT-4	-	EHO	p24	0.38 µM
Nc1ncnc2c1ncn2[C@H]1CC[C@@H](CO)O1	MOLT-4/C8 + MOLT-4	-	ROD	-	5.5 µM
COc1ccc(CN[C@@H](C(=O)N[C@H]2c3ccccc3C[C@H]2O)[C@H](O)[C@H](Cc2ccccc2)NC(=O)[C@@H](NC(=O)OCc2ccccc2)C(C)(C)C)cc1	MT-4	-	EHO	p24	0.24 µM
CC(C)Nc1cccnc1N1CCN(C(=O)c2cc3cc(NS(C)(=O)=O)ccc3[nH]2)CC1	PBMC	-	ROD	RT activity	>62.5 µM
CCc1c(C(=O)c2cc(C)cc(C)c2)n(CC2CC=CC2)c(=O)[nH]c1=O	PBMC	clinical isolate	CBL-20	cytopathic effect / XTT	0.48 µM
O=c1[nH]n(-c2nc3ccccc3c(=O)n2-c2ccc(Cl)cc2)c(=O)c2ccccc12	MT-4	-	ROD	visual reading	43.68 µM
COC(=O)CC(OP(=O)(OC[C@@H]1C=C[C@H](n2cc(C)c(=O)[nH]c2=O)O1)OC(CC(=O)OC)c1ccccc1)c1ccccc1	CEM + CEM TK-	-	ROD	cytopathic effect / syncytia	>10 µM
CCCc1cc(=O)oc2c3c(c4c(c12)OC(C)(C)C=C4)O[C@H](C)[C@@H](C)[C@@H]3O	CEM + CEM-SS	-	-	cytopathic effect / XTT	>2.7 µM
Oc1cc(O)c2c(c1)O[C@H](c1ccc(O)c(O)c1)[C@H](O)C2	C8166	-	ROD	ELISA	2 µg/mL
Cc1cn([C@H]2C=C[C@@H](CO)O2)c(=O)[nH]c1=O	CEM + CEM TK-	-	ROD	cytopathic effect / syncytia	>10 µM
CCCCCNc1nc(N)nc2c1[nH]c[n+]2C[C@@H](C)OCP(=O)(O)O	MT-4	-	ROD	cytopathic effect / MTT	37.7 ± 5.8 µg/mL
CC(C)(C)[Si](C)(C)OCC1OC(n2nncc2C(=O)NC2CCCC2)C(O[Si](C)(C)C(C)(C)C)C12OS(=O)(=O)C=C2N	CEM	-	ROD	cytopathic effect	>50 µM
Nc1ncnc2c1ncn2[C@H]1C=C[C@@H](CO)O1	MOLT-4/C8 + MOLT-4	-	ROD	-	25 µM
CC(C)Nc1cccnc1N1CCN(C(=O)c2cc3cc(NS(C)(=O)=O)ccc3[nH]2)CC1	MT-4	-	EHO	cytopathic effect / MTT	2.1 µM
O=c1[nH]n(-c2nc3ccccc3c(=O)n2-c2ccncc2)c(=O)c2ccccc12	MT-4	-	ROD	visual reading	100 µM
COc1ccc(CN[C@@H](C(=O)N[C@H](C(=O)NCc2nc3ccccc3[nH]2)C(C)C)[C@H](O)[C@H](Cc2ccccc2)NC(=O)[C@@H](NC(=O)CCc2ccc(O)cc2)C(C)(C)C)cc1	MT-4	-	ECHO	p24	0.38 µM
CCNc1nc(N(C)C)nc2c1[nH]c[n+]2C[C@@H](C)OCP(=O)(O)O	CEM	-	ROD	cytopathic effect / MTT	3.3 ± 1.1 µg/mL
O=C(N/N=C/c1cccc([N+](=O)[O-])c1)c1csc(N2N=C(c3ccccc3)CC2c2ccc(Cl)cc2)n1	MT-4	-	ROD	MTT / absorbance	>0.47 µM
Cc1cn([C@H]2C[C@H](N=[N+]=[N-])[C@@H](CO)O2)c(=O)[nH]c1=O	PBMC	-	1010	ELISA	0.04 µM
CCC(C)Nc1nc(N)nc2c1ncn2CCOCP(=O)(O)O	CEM	-	ROD	cytopathic effect / MTT	3 µg/mL
O=C(N/N=C/c1cccc(Cl)c1)c1csc(N2N=C(c3ccccc3)CC2c2ccc(Cl)cc2)n1	MT-4	-	ROD	MTT / absorbance	>64.5 µM
COC(=O)[C@H](C)NP(=O)(OC[C@@H]1C=C[C@H](n2cc(C)c(=O)[nH]c2=O)O1)Oc1ccccc1	MT-4	5 d	ROD	trypan blue	0.07 µM
O=c1[nH]c(=O)n(/C=C\P(=O)(O)O)cc1I	CEM + CEM-SS	-	ROD	-	>200 µM
CC(C)[C@H](NC(=O)c1ccc2ccccc2n1)C(=O)N[C@@H](Cc1ccccc1)[C@H](O)CN1CC[C@@H](OCc2ccncc2)C[C@H]1C(=O)NC(C)(C)C	C8166	-	ROD	p24 / ELISA / antigen	0.03 µM
Cc1ccnc2c1NC(=O)c1cccnc1N2C1CC1	MT-4	-	ROD	MTT / absorbance	>4 µM
CC(C)=CCN1Cc2cccc3[nH]c(=S)n(c23)C[C@@H]1C	PBMC	-	ROD	RT activity	>6.25 µM
Cc1cccc2c1OP(=O)(OC[C@@H]1C=C[C@H](n3cc(C)c(=O)[nH]c3=O)O1)OC2	CEM + CEM/O	-	LAV-2	syncytia	0.1 µM
Cc1cn([C@H]2C[C@H](N=[N+]=[N-])[C@@H](CO)O2)c(=O)[nH]c1=O	PBMC	-	-	p24 / ELISA	0.001 µM
CCOP(=O)(/C=C/n1cc(F)c(=O)[nH]c1=O)OCC	CEM + CEM-SS	-	ROD	-	>200 µM
Cc1cn([C@H]2C=C[C@@H](COP(=O)(OCc3ccccc3)OCc3ccccc3)O2)c(=O)[nH]c1=O	CEM + CEM TK-	-	ROD	cytopathic effect / syncytia	>10 µM
O=C(O[C@@H]1Cc2c(O)cc(O)cc2O[C@@H]1c1ccc(O)c(O)c1)c1cc(O)c(O)c(O)c1	C8166	-	ROD	ELISA	1 µg/mL
Cc1ccnc2c1NC(=O)c1cccnc1N2C1CC1	MT-4	-	NIH-ZY-M	cytopathic effect / MTS	>10 µM
O=c1cc(-c2ccccc2)oc2cc(O)cc(O)c12	C8166	-	ROD	ELISA	40 µg/mL
CN(C)C(=O)c1cnnn1[C@@H]1O[C@H](CO[Si](C)(C)C(C)(C)C)C2(OS(=O)(=O)C=C2N)[C@H]1O[Si](C)(C)C(C)(C)C	MT-4	-	ROD	cytopathic effect	>30 µM
Cc1cn([C@H]2C[C@H](N=[N+]=[N-])[C@@H](CO)O2)c(=O)[nH]c1=O	HT4 + HT4-6C	-	ROD	plaque count	0.112 µM
CC(C)CN(C[C@@H](O)[C@H](Cc1ccccc1)NC(=O)[C@@H](NC(=O)CNCc1cccc(F)c1)C(C)(C)C)S(=O)(=O)c1cccc(N)c1	MT-2	-	-	virus yield	<0.01 µM
Cc1ccc(CN2C(=O)CSC2c2c(Cl)cccc2Cl)o1	MT-4	-	ROD	cytopathic effect	9.56 µM
Cc1ccnc2c1NC(=O)c1cccnc1N2C1CC1	MAGI + MAGI-CCR5	3 d	ROD	β-galactosidase	>1000 µM
O=C(N/N=C/c1cccc(O)c1)c1csc(N2N=C(c3ccccc3)CC2c2ccc(Cl)cc2)n1	MT-4	-	ROD	MTT / absorbance	>66.85 µM
CSC[C@H](NC(=O)COc1cccc2cnccc12)C(=O)N[C@@H](Cc1ccccc1)[C@H](O)C(=O)N1CSC(C)(C)[C@H]1C(=O)NC(C)(C)C	ATH8	-	ROD	trypan blue	0.1 µM
CC[C@@]1(O)C(=O)OCc2c1cc1n(c2=O)Cc2c-1nc1ccccc1c2CO	C8166	-	ROD	syncytia	0.0024 µg/mL
Cc1cccc(N2C(=O)CSC2c2ccc(N(C)C)cc2)n1	MT-4	-	ROD	cytopathic effect	102 µM
CC(C)=CCN1Cc2cccc3[nH]c(=S)n(c23)C[C@@H]1C	MT-4	-	ROD	trypan blue	>50 µM

The first 9 rows once more:

structure,cell line,setting,strain,method,result
C#C[C@]1(CO)O[C@@H](n2ccc(N)nc2=O)[C@@H](O)[C@@H]1O,HeLa,-,EHO,β-galactosidase,0.003 µM
O=c1[nH]c(=O)n(/C=C/P(=O)(O)O)cc1Br,CEM + CEM-SS,-,ROD,-,>200 µM
CCOC(=O)c1csc(N2N=C(c3ccccc3)CC2c2ccc(Cl)cc2)n1,MT-4,-,ROD,MTT / absorbance,>11.51 µM
Nc1nc(NC2CC2)c2ncn([C@H]3C=C[C@@H](CO)C3)c2n1,MT-4,-,ZY,cytopathic effect / propidium iodide,4.1 µM
CCCCNc1nc(N)nc2c1[nH]c[n+]2C[C@@H](C)OCP(=O)(O)O,CEM,-,ROD,cytopathic effect / MTT,10 µg/mL
Cc1ccnc2c1NC(=O)c1cccnc1N2C1CC1,CEM + CEM-SS,-,ROD,XTT,>38 µM
Cc1ccnc2c1NC(=O)c1cccnc1N2C1CC1,CEM + CEM-SS,-,-,cytopathic effect / XTT,>38 µM
Cc1cn([C@H]2C[C@H](N=[N+]=[N-])[C@@H](CO)O2)c(=O)[nH]c1=O,PBMC,-,-,p24 / RT activity,0.012 µM
COC(=O)[C@@H](C)NP(=O)(OC[C@@H]1C=C[C@H](n2cc(C)c(=O)[nH]c2=O)O1)Oc1ccccc1,CEM,-,-,-,2 µM